These results are taken from article PMC9770395 (PLOS Neglected Tropical Diseases, 2022).

Like-named read-outs stand apart in the source and are kept apart here.

Data set [1] deals with CT- and STa-stimulated Cl^- secretion in T84 cell monolayers. The data set is described as follows: cells. The note with it: Homo sapiens. It counts as cell-based.

A word on the inhibition: it is the relative decrease from the control value, in per cent. For the compound `CC[C@H](C)C(=O)O[C@H]1C[C@@H](C)C=C2C=C[C@H](C)[C@H](CC[C@@H]3CC=CC(=O)O3)[C@H]21` [DHLV, α,β-dehydrolovastatin], the inhibition at 20 µM in data set [1] (read-out: Inhibition of CT-induced ISC) and in data set [1] (read-out: Inhibition of STa-induced ISC) was > 90% throughout. The “Effect on FITC-dextran flux (barrier integrity)” value in the data set on T84 cell monolayers is “no effect”. Further, in the data set on T84 cells, the “Effect on cell viability (MTT)” value was “did not affect cell viability”.
